Anti-infective test results gathered from many reports (values: NIAID ChemDB through PubChem).

Common to all: growth or infection tests; species: HIV-1

ECn is the concentration giving n% inhibition of infection, replication or growth.

SMILES	conditions	measure	strain	cells	changes	method	result
N#Cc1ccc(Nc2nc(Oc3ccc(-c4ccc(C#N)cc4)cc3[N+](=O)[O-])c3sccc3n2)cc1		EC50	IIIB	MT-4	Y188L	MTT	>15.14 µM
Nc1ccn([C@H]2C=C[C@@H](CO)O2)c(=O)n1		EC50	HXB2	CD4+HELA + HeLa	RT-M184V	plaque count	0.5 µM
CC(=O)N1CCC(C(=O)N(CCCN2CCC(Cc3ccc(C(N)=O)cc3)CC2)c2ccc(C)c(Cl)c2)CC1		EC50	HE R5X4	PBMC		p24	>10 µM
Cc1ccnc2c1NC(=O)c1cccnc1N2C1CC1		EC50	NL4-3	C8166	V106M	p24 / ELISA	3.14 µM
O=C1O[C@H]2[C@@H]3OC(=O)c4cc(O)c(O)c(O)c4-c4c(cc(O)c(O)c4O)C(=O)OC[C@H]2O[C@@H](OC(=O)c2cc(O)c(O)c(O)c2)[C@@H]3OC(=O)c2cc(O)c(O)c3c2[C@@H]2C1=CC(=O)[C@](O)(O3)C2(O)O		EC50	NRTI resistant (RT K65R M184V) ARP1006	MAGI	RT-K65R M184V		2.4 µg/mL
C#Cc1ccc(Nc2nccc(Oc3c(C)cc(-c4cn(Cc5ccc(O)cc5)nn4)cc3C)n2)cc1		EC50	IIIB	MT-4	F227L and V106A	MTT	>2.1 µM
CC(C)(C)NC(=O)[C@@H]1C[C@@H]2CCCC[C@@H]2CN1C[C@@H](O)[C@H](Cc1ccccc1)NC(=O)[C@H](CC(N)=O)NC(=O)c1ccc2ccccc2n1		EC50	RF				0.0064 µM
CCCc1cc(=O)oc2c3c(c4c(c12)OC(C)(C)C=C4)O[C@H](C)[C@@H](C)[C@@H]3O		EC50	Thiazolobenzimidazole-resistant (RT V108I)	CEM + CEM-SS	RT-V108I	XTT	24 µM
COC(=O)c1cc2c(c(OC)c1-c1ccc(N(C)C)cc1)OCO2		EC50	NL4-3	C8166	WT	antigen	0.53 µM
Cc1ccnc2c1NC(=O)c1cccnc1N2C1CC1		EC50	HE	MOLT-4		cytopathic effect	0.05 µg/mL
Cc1ccccc1CN1CCC(N=C2C=C(Cc3ccc(Cl)cc3Cl)NS(=O)(=O)N2)CC1		EC50	RES056	MT-4	RT-K103N Y181C	MTT	>107 µM
Cc1cn([C@H]2C[C@H](N=[N+]=[N-])[C@@H](CO)O2)c(=O)[nH]c1=O		EC90	472 clinical isolates AZT-resistant	PBMC		p24	1.4 µM
Cc1cn([C@H]2C[C@H](N=[N+]=[N-])[C@@H](CO)O2)c(=O)[nH]c1=O		EC90	Isolate 458	PBMC		p24	0.3 µM
CC[C@H](C)[C@H](NC(=O)c1ccccc1SSc1ccccc1C(=O)N[C@H](C(=O)O)[C@@H](C)CC)C(=O)O		EC50	A17	MT-2	RT-K103N Y181C	p24 / RT activity	5.6 µM
Cc1ccnc2c1NC(=O)c1cccnc1N2C1CC1		EC50	IIIB	MT-4	K103N	MTT	12.35 µM
Cc1ccnc2c1NC(=O)c1cccnc1N2C1CC1		EC50	RES056	MT-4		MTT	>15.9 µM
Nc1ncnc2c1ncn2CCOCP(=O)(O)O		EC50	IIIB-TSAO-m3T(10)(RT-Y181C)	CEM	RT-Y181C	syncytia	6 µM
Cc1cn([C@H]2C[C@H](N=[N+]=[N-])[C@@H](CO)O2)c(=O)[nH]c1=O		EC50	IIIB	MT-4	L100I	MTT	0.006 µM
Cc1cn([C@H]2C[C@H](N=[N+]=[N-])[C@@H](CO)O2)c(=O)[nH]c1=O		EC50	CLADE B	PBMC		cytopathic effect / XTT	0.001 µM
C#C[C@@]1(CO)C=C[C@H](n2cc(C)c(=O)[nH]c2=O)O1		EC50	HXB2	MAGI (CCR5) + MAGI	RT-K65R	β-galactosidase	1.3 µM
Cc1c(C#N)cc(C(F)F)cc1Oc1c(C(F)(F)C(F)F)ncn(Cc2cc(F)c[nH]c2=O)c1=O		EC50			Y181C	luminescence	0.0211 µM
CCN(c1ncccc1NC(C)(C)C)C1CCN(C(=O)c2cc3cc(NS(C)(=O)=O)ccc3[nH]2)CC1		EC50	IIIB			p24	0.47 ± 0.04 µM
Nc1ccn([C@H]2CC[C@@H](CO)O2)c(=O)n1		EC50	IIIB-Nevirapine(1.0)(RT-Y181C)	CEM	RT-Y181C	syncytia	0.04 µM
N#Cc1ccc(Nc2nc(Oc3ccc(-c4ccc(C#N)cc4)c(Cl)c3)c3sccc3n2)cc1		EC50	IIIB	MT-4		MTT	0.2296 µM
CCCN(C)C(=O)Oc1nsnc1-c1c(Cl)ccc(N)c1Cl		EC50	IIIB	MAGI	RT-V108I	MTT	0.045 µM
C1CNCCNCCCN(CCCN2CCCNCCNCCCNCC2)CCNC1		EC50	A012B	MT-4		p24 / ELISA	0.12 µM
COC(=O)[C@H](C)NP(=O)(OC[C@@H]1C=C[C@H](n2cc(C)c(=O)[nH]c2=O)O1)Oc1ccc(Br)cc1		EC50	Q252-2 Clinical isolate ZDV-resistant	PBMC	RT-M41L L210W T215Y	p24	0.0019 µM
Nc1nc(=O)n([C@H]2CO[C@@H](CO)S2)cc1F		EC50	HXB2D(RT-M184I)	MT-4	RT-M184I	RT activity	18 µM
O=S1(c2cccc(Cl)c2)=NC(=S)Nc2ccc(Cl)cc21		EC50	IIIB	CEM + CEM-SS		cytopathic effect / XTT	0.63 µM
Cc1cn([C@H]2C[C@H](N=[N+]=[N-])[C@@H](CO)O2)c(=O)[nH]c1=O		EC50	RF	CEM + CEM-SS		XTT	0.004 µM
Cc1cn([C@H]2C=C[C@@H](CO)O2)c(=O)[nH]c1=O		EC50	HXB2-D WT	MT-2		cytopathic effect / XTT	6.7 µM
CCCc1cc(=O)oc2c3c(c4c(c12)OC(C)(C)C=C4)O[C@@H](C)[C@H](C)[C@@H]3O		EC50	NL4-3	CEM + CEM-SS	RT-L74V	XTT	0.2 µM
C#Cc1ccc(Nc2nccc(Oc3c(C)cc(-c4cn(Cc5ccc([N+](=O)[O-])cc5)nn4)cc3C)n2)cc1		EC50	IIIB	MT-4	Y181C	MTT	1.42 µM
CCO/N=C(\c1ccc(Br)cc1)C1CCN(C2(C)CCN(C(=O)c3c(C)cc[n+]([O-])c3C)CC2)CC1		EC50	ASJM 108 R5 CLADE B	PBMC		p24	0.0011 µM
O=S1(c2ccccc2)=NC(=S)Nc2ccccc21		EC50	RF	CEM + CEM-SS		cytopathic effect / XTT	1.39 µM
CC(C)=CCN1Cc2cc(Cl)cc3[nH]c(=S)n(c23)C[C@@H]1C		EC50	205	CEM + CEM-SS		cytopathic effect / MTT	0.205 µM
Cc1cn([C@H]2C[C@H](N=[N+]=[N-])[C@@H](CO)O2)c(=O)[nH]c1=O		EC50	IIIB	MT-2	I401T	p24 / ELISA	0.153 µM
C#Cc1ccc(Nc2nccc(Oc3c(C)cc(-c4cn(CC(=O)Nc5ccc(S(C)(=O)=O)cc5)nn4)cc3C)n2)cc1		EC50	IIIB	MT-4		MTT	0.056 µM
C1CNCCNCCCN[C@H]([C@@H]2CNCCCNCCNCCCN2)CNC1		EC90	IIIB	CEM		antigen	2.32 µM
Nc1nc(=O)n([C@@H]2CS[C@H](CO)O2)cc1F		EC50	Site-directed mutant	MT-2	RT-K65R M184V	cytopathic effect / XTT	>161 µM
O=S1(=O)NC(Cc2cccc3ccccc23)=CC(=NC2CCN(Cc3ccc(F)cc3)CC2)N1		EC50	RES056	MT-4	RT-K103N Y181C	MTT	>120 µM
CCOP(=O)(COc1ccc(C[C@H](NC(=O)O[C@H]2CO[C@H]3OCC[C@H]32)[C@H](O)CN(CC(C)C)S(=O)(=O)c2ccc(OC)cc2)cc1)OCC		EC50	IIIB	MT-2	PLV-P31 LVP-resistant mutant	ATP	0.0048 µM
O=c1[nH]cnc2c1ncn2[C@H]1CC[C@@H](CO)O1		EC50	IIIB	CEM		syncytia	5 µM
O=[N+]([O-])c1ccc(CN2CCC(N=C3C=C(Cc4cccc5ccccc45)NS(=O)(=O)N3)CC2)cc1		EC50	RES056	MT-4	RT-K103N Y181C	MTT	>104 µM
CCn1c(=O)c(C)cn([C@@H]2O[C@H](CO[Si](C)(C)C(C)(C)C)C3(OS(=O)(=O)C=C3N)[C@H]2O[Si](C)(C)C(C)(C)C)c1=O		EC50	IIIB	CEM		syncytia	0.03 µM
Cc1ccnc2c1NC(=O)c1cccnc1N2C1CC1		EC50	NL4-3 WT	MAGI (CCR5) + MAGI		β-galactosidase	0.061 µM
CC(=O)Oc1ccc(/C=C/C(=O)O[C@H](C(=O)O)[C@H](OC(=O)/C=C/c2ccc(OC(C)=O)c(OC(C)=O)c2)C(=O)O)cc1OC(C)=O		EC50	NL4-3	MT-4	AR177-resistant	cytopathic effect / MTT	>93 µM
O=c1[nH]cnc2c1ncn2[C@H]1CC[C@@H](CO)O1		EC50	RTMC (RT-V 75A)	CD4+HELA + HeLa	RT-V75A	plaque count	4 µM
Cc1cccc(C)c1OCC(=O)N[C@@H](Cc1ccccc1)[C@@H](O)C[C@H](Cc1ccccc1)NC(=O)[C@H](C(C)C)N1CCCNC1=O		EC50	92UG037	PBMC		p24 / luminescence	0.12 µM
CCOCn1c(Cc2cc(C)cc(C)c2)c(CC)c(=O)[nH]c1=O		EC50	IIIB TIBO R82913 STR-B22 (RT L100I Y188H)	CEM	RT-L100I Y188H	syncytia	0.12 µM
COc1cc(-c2ccc(C#N)cc2)ccc1Oc1nc(Nc2ccc(C#N)cc2)nc2ccsc12		EC50	IIIB	MT-4		MTT	0.0358 µM
CC(C)CN(C[C@@H](O)[C@H](Cc1ccc(F)cc1)NC(=O)O[C@H]1CCO[C@H]2OCC[C@H]21)S(=O)(=O)c1ccc2nc(NC(C)C)sc2c1	clinical isolate, multidrug-resistant	EC50	Clinical isolate	PBMC	L10I I15V K20R L24I M36I M46L I54V I62V L63P K70Q V82A L89M	p24 / luminescence	0.0025 µM
Cc1ccnc2c1NC(=O)c1cccnc1N2C1CC1		EC50	RTMN(184) (RT M41L M184V T215Y)	HT4 + HT4 LacZ-1	RT-M41L M184V T215Y	plaque count	0.06 µM
C#Cc1ccc(Nc2nccc(Oc3c(C)cc(-c4cn(-c5cccc(C(=O)OC)c5)nn4)cc3C)n2)cc1		EC50	IIIB	MT-4	Y188L	MTT	>242 µM
Nc1ncnc2c1ncn2CC(CF)OCP(=O)(O)O		EC50	IIIB TSAO-T(RT-E138K)	CEM	RT-E138K	syncytia	4 µM
N#Cc1ccccc1CN1CCC(N=C2C=C(Cc3ccc(Cl)cc3Cl)NS(=O)(=O)N2)CC1		EC50	RES056	MT-4	RT-K103N Y181C	MTT	>121 µM
CC(C)Nc1cccnc1N1CCN(C(=O)c2cc3cc(NS(C)(=O)=O)ccc3[nH]2)CC1		EC50	HXB2D	MT-4		RT activity	0.004 µM
Cc1ccnc2c1NC(=O)c1cccnc1N2C1CC1		EC50	ADA	MM + M/M		p24	0.2 µM
CCc1cc(NCc2nc3c(C)ccc(C)c3o2)c(=O)[nH]c1C		EC95	IIIB	H9		p24	0.15 µM
Cc1cn([C@H]2C[C@H](N=[N+]=[N-])[C@@H](CO)O2)c(=O)[nH]c1=O		EC50	U317-8 Clinical isolate ZDV-resistant	HT4 + HeLa	RT-M41L L210W T215Y	syncytia	2 µM
N#Cc1cccc(CN2CCC(N=C3C=C(Cc4ccc(Cl)cc4Cl)NS(=O)(=O)N3)CC2)c1		EC50	IIIB	MT-4		MTT	35 µM
C#Cc1ccc(Nc2nccc(Oc3c(C)cc(-c4cn(Cc5ccc(C(N)=O)cc5)nn4)cc3C)n2)cc1		EC50	IIIB	MT-4		MTT	0.049 µM
O=c1[nH]cnc2c1ncn2[C@H]1CC[C@@H](CO)O1		EC50	IIIB	CEM	RT-V179D	syncytia	6.9 ± 6.18 µM
Cc1ccc(S(=O)(=O)N(CC(C)C)C[C@@H](O)[C@H](Cc2ccccc2)NC(=O)O[C@H]2CO[C@H]3OCC[C@H]32)cc1		EC50	IIIB	MT-2	8374-P62 GS-8374-resistant	ATP	0.0095 µM
Cc1occc1C(=S)Nc1ccc(Cl)c(/C=N/OC(C)(C)C)c1		EC50	IIIB	CEM		syncytia	0.011 ± 0.008 µM
Nc1ncnc2c1ncn2CCOCP(=O)(O)O		EC50	IIIB	CEM		syncytia	7 µM
C=C1[C@H](CO)[C@@H](O)C[C@@H]1n1cnc2c(=O)[nH]c(N)nc21		EC50	IIIB	MT-4	L100I	MTT	0.006 µM
Cc1ccnc2c1NC(=O)c1cccnc1N2C1CC1		EC50	IIIB-TSAO-m3T(10)(RT-Y181C)	CEM	RT-Y181C	syncytia	0.02 µg/mL
CC(C)=CCN1Cc2cccc3[nH]c(=S)n(c23)C[C@@H]1C		EC50	IIIB nevirapine-resistant (RT Y181C)	CEM	RT-Y181C	syncytia	2 µM
Nc1nc(=O)n([C@@H]2CO[C@H](CO)S2)cc1F		EC50	4242 (RT-M41L K70R T215Y)	CBMC	RT-M41L K70R T215Y	RT activity	0.4 µM
CC(C)=CCOc1cc(NC(=S)c2ccoc2C)ccc1Cl		EC50	IIIB	CEM	RT-E138K	cytopathic effect	0.004 µg/mL
Nc1ccn([C@H]2CC[C@@H](CO)O2)c(=O)n1		EC50	HXB2-D184 (RT-M184V)	MT-4	RT-M184V	p24	2.2 µM
CCc1cc(NCc2nc3c(Cl)ccc(Cl)c3o2)c(=O)[nH]c1C	clinical isolate	EC50	A018A/H112-2	CEM		p24	<0.25 µM
CCC[C@@]1(CCc2ccccc2)CC(O)=C([C@H](CC)c2cccc(NS(=O)(=O)c3ccc(C(F)(F)F)cn3)c2)C(=O)O1		EC50	NL4-3	MT-4		p24	<0.07 µM
Cc1cn([C@H]2C[C@H](N=[N+]=[N-])[C@@H](CO)O2)c(=O)[nH]c1=O		EC50	4170 (AZT-resistant)	CBMC		RT activity	0.65 µM
Nc1nc(=O)n([C@@H]2CS[C@H](CO)O2)cc1F		EC50	HXB2	HT4 + HT4 LacZ-1		plaque count	0.09 µM

Lines come from different laboratories, so protocols vary. An empty or dashed field is not shown.